Results deposited as PubChem BioAssay AID624099 (ICCB-Longwood, 2012)
Shown is a random part of about 21,000 deposited reagents. 497 of all reagents (2.4%) were called active. 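Higher z means weaker E2 silencing; only reporter increases were scored, and knock-downs that hurt cell survival may mask genuine repressor factors.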 The numbers tell different reagents against one gene apart.

Assay: 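Knock-downs relieving repression by E2 of an HPV18 LCR luciferase reporter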 (primary screen)
Cells: human C33A cervical carcinoma cells (HPV-negative) stably expressing BPV1 E2 and an HPV18 LCR luciferase reporter
Reagent: siRNA pool against human genes, 40 nM
Time to read-out: 72 h
Measured: 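HPV18 LCR reporter light per well, converted to plate-wise z-scores that exclude control wells, and averaged over triplicate plates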
Reading the numbers: mean z-score and z-score: higher = stronger reporter signal, weaker E2 silencing
Active means: 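Mean z ≥ 2 together with z ≥ 2 in two or more of the three replicates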

no.	gene symbol	reagent no.	mean z-score	z-score, replicate A	z-score, replicate B	z-score, replicate C	Call
1	NRAS (NRAS proto-oncogene, GTPase)	1	0.09	-0.15	0.2	0.22	inactive
2	IL36G (interleukin 36 gamma)	1	-0.16	0.1	-0.29	-0.28	inactive
3	TIMM8B (translocase of inner mitochondrial membrane 8 homolog B)	1	-0.57	-0.12	-0.57	-1.01	inactive
4	EIF1AX (eukaryotic translation initiation factor 1A X-linked)	1	-1.33	-1.24	-1.39	-1.35	inactive
5	EDC4 (enhancer of mRNA decapping 4)	1	-0.95	-0.91	-0.73	-1.23	inactive
6	LOC388623 (retired record)	1	-0.27	0.22	-0.26	-0.76	inactive
7	ENTPD5 (ectonucleoside triphosphate diphosphohydrolase 5)	1	0.04	0.46	-0.16	-0.19	inactive
8	OR10R2 (olfactory receptor family 10 subfamily R member 2)	1	0.15	0.29	-0.31	0.46	inactive
9	JMJD4 (jumonji domain containing 4)	1	-2.05	-1.97	-2.21	-1.96	inactive
10	XCL2 (X-C motif chemokine ligand 2)	1	1.83	1.78	1.73	1.97	inactive
11	STOX1 (storkhead box 1)	1	0.49	0.35	0.74	0.38	inactive
12	LOC391761 (retired record)	1	0.53	0.25	0.62	0.73	inactive
13	STPG3 (sperm-tail PG-rich repeat containing 3)	1	-1.26	-1.09	-1.62	-1.06	inactive
14	CDCA4 (cell division cycle associated 4)	1	-0.82	-0.85	-0.76	-0.84	inactive
15	LOC387784 (retired record)	1	0.2	0.32	0.23	0.05	inactive
16	VPS26A (VPS26 retromer complex component A)	1	-0.49	-0.46	-0.51	-0.51	inactive
17	SLCO1A2	1	-0.6	-0.61	-0.54	-0.64	inactive
18	FKBP11 (FKBP prolyl isomerase 11)	1	-1.23	-1.32	-1.34	-1.04	inactive
19	SALL2 (spalt like transcription factor 2)	1	0.51	0.19	0.69	0.65	inactive
20	TAP1 (transporter 1, ATP binding cassette subfamily B member)	1	0.07	0.28	0.03	-0.1	inactive
21	EXOSC8 (exosome component 8)	1	0.6	0.66	0.8	0.34	inactive
22	ZNF503 (zinc finger protein 503)	1	0.79	0.74	0.68	0.95	inactive
23	LOC401433 (retired record)	1	1.36	1.5	1.11	1.48	inactive
24	LOC401433 (retired record)	2	1.49	1.64	1.4	1.44	inactive
